Compound potency records, mixed from different reports. Data source: NIAID ChemDB in PubChem.

Shared fields: growth or infection tests; organism: HIV-1

Lines come from different laboratories, so protocols vary.

SMILES,read by,cell line,setting,read-out,mutations,strain or isolate,tested at,value
Cc1ccnc2c1NC(=O)c1cccnc1N2C1CC1,β-galactosidase,MAGI,-,EC50,RT-K103N L100I,NNRTI-resistant (RT K103N L100I),-,7.9 µM
CCCOc1ccc(Cc2cc(C3CCN(C[C@H]4CN([C@@H](C(=O)O)C(C)C)C[C@@H]4c4cccc(F)c4)CC3)n(CC)n2)cc1,β-galactosidase,HeLa,50% human serum,EC90,-,BaL,-,>0.3 µM
Cc1cn([C@H]2C[C@H](N=[N+]=[N-])[C@@H](COP(=O)(O)OC[C@H]3OC(O)[C@H](O)[C@@H](O)[C@@H]3O)O2)c(=O)[nH]c1=O,RT activity,PBL,7 d,inhibition,-,LAV-Bru,25 µM,96%
Cc1occc1C(=S)Nc1ccc(Cl)c(/C=N/OC(C)(C)C)c1,XTT,CEM + CEM-SS,-,fold resistance,RT-L100I T139I,Costatolide-resistant (RT L100I T139I),-,26
O=C(O)P(=O)(O)O,RT activity,PBL,28 d,inhibition,-,IIIB,64 µM,94%
Cc1cn([C@H]2C[C@H](N=[N+]=[N-])[C@@H](COP(=O)(O)OC[C@H]3OC(O)[C@@H](O)[C@@H](O)[C@@H]3O)O2)c(=O)[nH]c1=O,RT activity,CEM,26 d,inhibition,-,LAV-Bru,5 µM,0%
CCc1c(C(=O)c2cc(C)cc(C)c2)n(CC2CC=CC2)c(=O)[nH]c1=O,cytopathic effect / XTT,PBMC,clinical isolate,EC50,-,WEJO,-,0.0002 µM
Cc1cn([C@H]2C[C@H](N=[N+]=[N-])[C@@H](CO)O2)c(=O)[nH]c1=O,p24 / ELISA,PBMC,-,EC90,-,-,-,0.13 µM
CCCc1cc(=O)oc2c3c(c4c(c12)OC(C)(C)C=C4)O[C@H](C)[C@@H](C)[C@@H]3O,XTT,CEM + CEM-SS,-,EC50,RT-V108I,Thiazolobenzimidazole-resistant (RT V108I),-,24 µM
Cn1c2ccccc2c2c1cc(C#N)c(=O)n2-c1ccc([N+](=O)[O-])cc1,luciferase,HeLa,-,fold resistance,RT-A62T V118I M184V,Recombinant,-,9.5
CCn1nc(Cc2cc(F)cc(F)c2)cc1C1CCN(C[C@H]2CN([C@@H](C(=O)O)C3CCCCC3)C[C@@H]2c2cccc(F)c2)CC1,β-galactosidase,HeLa,-,EC90,-,BaL,-,<0.00014 µM
CC(C)CN(C[C@@H](O)[C@H](Cc1ccccc1)NC(=O)O[C@H]1CCOC1)S(=O)(=O)c1ccc(N)cc1,p24,MT-4,-,EC90,-,NL4-3,-,0.08 µM
O=C1N(Cc2ccc(CO)cc2)[C@H](Cc2ccccc2)[C@H](O)[C@@H](O)[C@@H](Cc2ccccc2)N1Cc1ccc(CO)cc1,p24,PBMC,-,inhibition,-,Clinical isolate D3,0.16 µM,90%
CC(C)CN(C[C@@H](O)[C@H](Cc1ccccc1)NC(=O)[C@H](CC(N)=O)NC(=O)c1ccc2ccccc2n1)C(=O)NC(C)(C)C,p24,MT-4,-,EC95,PR-L10R M46I L63P 184V,NL4-3,-,1.5 µM
Cc1cn([C@H]2C[C@H](N=[N+]=[N-])[C@@H](CO)O2)c(=O)[nH]c1=O,RT activity,CEM,15 d,inhibition,-,LAV-Bru,1 µM,97%
O=C1N(Cc2ccc(CO)cc2)[C@H](Cc2ccccc2)[C@H](O)[C@@H](O)[C@@H](Cc2ccccc2)N1Cc1ccc(CO)cc1,p24,MT-4,-,EC95,PR-L10R L63P,NL4-3,-,0.2 µM
Cc1cn([C@H]2C[C@H](N=[N+]=[N-])[C@@H](CO)O2)c(=O)[nH]c1=O,XTT,CEM + CEM-SS,-,fold resistance,RT-V108I,Thiazolobenzimidazole-resistant (RT V108I),-,0.8
CC(C)Nc1cccnc1N1CCN(C(=O)c2cc3ccccc3[nH]2)CC1,MTT,PBMC,-,inhibition,-,Seropositive clinical isolate C,1 µM,100%
CC(C)=CCN1Cc2cccc3[nH]c(=S)n(c23)C[C@@H]1C,XTT,CEM + CEM-SS,-,EC50,RT-L100I,Dihydrocostatolide-resistant (RT-L100I),-,11.7 µM
CC[C@H](C)[C@H](C(=O)O)N1C[C@H](CN2CCC(c3cc(Cc4ccc(S(=O)(=O)c5ccccc5)cc4)nn3CC)CC2)[C@@H](c2cccc(F)c2)C1,β-galactosidase,HeLa,50% human serum,EC90,-,BaL,-,0.011 µM
Cc1cn([C@H]2C[C@H](N=[N+]=[N-])[C@@H](CO)O2)c(=O)[nH]c1=O,luciferase,HeLa,-,EC50,RT-V75I F77L F116Y Q151M,NRTI resistant,-,0.72 µM
CO[P@](=O)(c1cc(C)cc(/C=C/C#N)c1)c1c(C(N)=O)[nH]c2ccc(Cl)c(F)c12,-,MT-4,-,EC50,K103R/V179D/P225H,IIIB,-,0.01 µM
CC[C@H](C)[C@H](C(=O)O)N1C[C@H](CN2CCC(c3cc(Cc4ccc5c(c4)OCO5)nn3CC)CC2)[C@@H](c2cccc(F)c2)C1,β-galactosidase,HeLa,50% human serum,EC90,-,BaL,-,0.1 µM
N#Cc1cc2[nH]c3ccccc3c2n(-c2ccc([N+](=O)[O-])cc2)c1=O,luciferase,HeLa,-,fold resistance,RT-A62T V118I M184V,Recombinant,-,6.3
CC(C)=CCN1Cc2cc(Cl)cc3[nH]c(=S)n(c23)C[C@@H]1C,plaque count,HT4 + HT4 LacZ-1,-,fold resistance,RT-L74V T215Y,HIVRTMF (RT L74V),-,0.909
c1cc(CN2CCCNCCNCCCNCC2)ccc1CN1CCCNCCNCCCNCC1,p24,PBMC,-,inhibition,-,CM7 CLADE C R5,0.5 µM,3%
CCn1nc(Cc2ccc(F)cc2F)cc1C1CCN(C[C@H]2CN([C@@H](C(=O)O)C(C)C)C[C@@H]2c2cccc(F)c2)CC1,β-galactosidase,HeLa,50% human serum,EC90,-,BaL,-,>0.3 µM
Cc1cn([C@H]2C=C[C@@H](CO)O2)c(=O)[nH]c1=O,p24 / ELISA,Primary T lymphocytes,-,EC90,M184V,-,-,2.6 µM
CCn1nc(Cc2ccc3ccccc3c2)cc1C1CCN(C[C@H]2CN([C@@H](C(=O)O)C(C)(C)C)C[C@@H]2c2cccc(F)c2)CC1,β-galactosidase,HeLa,50% human serum,EC90,-,BaL,-,0.1 µM
CC(C)=CCN1c2cc(Cl)cc3[nH]c(=S)n(c23)C[C@@H]1C,-,MT-4,-,EC95,RT-D67N K70R T215Y K219Q K103N,-,-,0.8 µM
CC[C@H](C)[C@H](C(=O)O)N1C[C@H](CN2CCC(c3cc(Cc4ccc(OC(C)C)cc4)nn3CC)CC2)[C@@H](c2cccc(F)c2)C1,β-galactosidase,HeLa,-,EC90,-,BaL,-,<0.00014 µM
C#C[C@]1(CO)O[C@@H](n2cnc3c(N)nc(F)nc32)C[C@@H]1O,fluorescence,MT4-GFP,-,EC50,M184V/H221Y,Clinical isolate,-,0.00793 µM
Cc1ccnc2c1NC(=O)c1cccnc1N2C1CC1,XTT,CEM + CEM-SS,-,fold resistance,RT-T139I,Calanolide A-resistant (RT T139I),-,3
O=C1Nc2ccc(Cl)cc2[C@@](C#CC2CC2)(C(F)(F)F)O1,p24 / ELISA,Primary T lymphocytes,-,EC90,4xAZT,-,-,0.2 µM

Again, the opening 4 rows:

SMILES	read by	cell line	setting	read-out	mutations	strain or isolate	tested at	value
Cc1ccnc2c1NC(=O)c1cccnc1N2C1CC1	β-galactosidase	MAGI	-	EC50	RT-K103N L100I	NNRTI-resistant (RT K103N L100I)	-	7.9 µM
CCCOc1ccc(Cc2cc(C3CCN(C[C@H]4CN([C@@H](C(=O)O)C(C)C)C[C@@H]4c4cccc(F)c4)CC3)n(CC)n2)cc1	β-galactosidase	HeLa	50% human serum	EC90	-	BaL	-	>0.3 µM
Cc1cn([C@H]2C[C@H](N=[N+]=[N-])[C@@H](COP(=O)(O)OC[C@H]3OC(O)[C@H](O)[C@@H](O)[C@@H]3O)O2)c(=O)[nH]c1=O	RT activity	PBL	7 d	inhibition	-	LAV-Bru	25 µM	96%
Cc1occc1C(=S)Nc1ccc(Cl)c(/C=N/OC(C)(C)C)c1	XTT	CEM + CEM-SS	-	fold resistance	RT-L100I T139I	Costatolide-resistant (RT L100I T139I)	-	26

An empty or dashed field is not shown. Fold resistance has wild type as its base. Percent inhibition refers to the dose given; in toxicity tests it is the harm to the cells. ECn is the concentration giving n% inhibition of infection, replication or growth.